According to the supplement of paper PMC9931576:
Human monoclonal antibodies against the spike receptor-binding domain (heavy:light variable regions). IC50 against pseudoviruses bearing the spike of naturally observed variants; lower = stronger; >10 µg/ml means not reached at the top dose. No active / inactive call. The stated detection limit is 0.0005 µg/ml; values near or below 0.001 µg/ml lie at the floor of the assay.

B1: BD56-1288 (protein)
chain 1: QVQLQESGPGLVKPSQTLSLTCTVSGGSVRNEVYYWSWIRQPPGKGLEWIGYIHYSGNTYYNPSLKSRVAISVDTSKNHFSLNLNSVTAADTAVYYCARVDVGGRLVSTFDYWGQGTLVTVSS
chain 2: NFMLTQPHSVSESPGMTVTISCTGSSGSIASNYVQWYQQRPGSAPSTVIYENYQRPSGVPNRFSGSIDSSSNSASLTISGLKTEDEADYYCQSYDASNIAVFGGGTQLTVL
B2: BD56-1289 (protein)
chain 1: QVQLQESGPGLVRPSQTLSLTCTVSGGSIRNEVYYWSWIRQPPGKGLEWIGYIHNSGNTYYNPSLKSRAAISVETSKNQFSLKLNSVTAADTAVYYCARVDVGGRLVSTFDSWGQGTLVTVSS
chain 2: NFMLTQPHSVSESPGMTVTISCTGSSGSIASNYVQWYQQRPGSAPTTVIYENNQRPSGVPDRFSGSIDSSSNSASLTISGLKTEDEADYYCQSYDDSNIAVFGGGTQLTVL
B3: BD56-1280 (protein)
chain 1: QVQLVESGGGVVQPGRSLRLSCVASGFTFSTYGMHWVRQAPGKGLEWVAVIWHDGSKKDYADSVKGRFTISRDNSKNTLYLQTSSLRAEDTAVYYCARGHYGDEVGYYYFALDVWGQGTTVTVSS
chain 2: QSVLTQPPSVSGAPGQRVTITCTGTSSNIGAPYDVHWYQQLPGTVPKLLIFGDTNRPSGVPDRFSGSKSGTSASLAITGLQAEDEGDYYCQSYDSSLSGWVFGGGTKLTVL
B4: BD56-1270 (protein)
chain 1: QVQLVQSGAEVKKPGASVKVSCKASGYTFTTYHIHWVRQAPGQGLEWMGIINPSGGGTRYAQKFQGRVTMTGDTSTSTGYMELSSLRSEDTAVYFCARELVAPAAGYMDVWGKGTTVTVSS
chain 2: SYVLTQPPSVSVAPGKTARITCGGNNIGSKSVHWYQQKPGQAPVVVVYDDSDRPSGIPERFSGSNSGNTATLTINRVEAGDEADYYCQVWDTSSDHFYVFGGGTKVTVL
B5: BD56-1292 (protein)
chain 1: QLQLQESGPGLVKPSETLSLTCTVSGGSISSSSYYWGWIRQPPGKGLEWIGNIYYSGTSYYKPSLKSRVTISVDTSKNQFSLKLTSVTAADTAVYYCARRGRIVGSTVVPFAFDIWGQGTMVTFSS
chain 2: QSALTQPASVSGSPGQSITVSCTGTSSDVGGYDHVSWYQQHPGKAPKLMIYDVINRPSGVSNRFSGAKSGNTASLTISGLQSEDEADYYCSSYTTSSTLFGGGTKLTVL
B6: BD56-1277 (protein)
chain 1: QVQLVQSGAEVKKPGASVKVSCKASGYTFSAYYIHWVRQAPGQGLEWMGWIDPNSGGTNYAQKFRARVTMTRDTSISTVFMELSRLRSDDTAVYYCARDSPGSSWSEVNWFDPWGQGTVVTVSS
chain 2: DIQMTQSPSSLSASVGDRVTITCRASQSISSELNWYQQKPGKAPKLLIYAASSLQSGVPSRFTGSGSGTDFTLTISSLQPEDFAYYFCQQSYSTPPWTFGQGTRVEIK
B7: BD56-1294 (protein)
chain 1: QVQLVESGGGVVQPGRSLRLSCAASGFTFRSYGMYWVRQAPGKGLEWVAVISYDGDDKYYADSVKGRFTISRDNSKNTLYLQMNSLRVVDTAVYYCAKGGGGPYCGGGNCYSTYFDYWGQGTLVTVSS
chain 2: DIQMTQSPSTLSASVGDRVTITCRASQSLSSWLAWYQQKPGKAPKLLIYEASSLESGVPSRFSGSGSGTEFTLTISGLQPDDFATYYCQQYNSYSAFGQGTKLEIK
B8: BD56-1299 (protein)
chain 1: QVQLVESGGGVVRPGRSLRLSCATSGFTFGDYGIHWVRQAPGKVLEWVAVISDDGGYKSYSDSVKGRFTISRDNSKNTVYLQMTNLRAEDTAVYYCARDYGDYVTHFDYWGQGTLVTVSS
chain 2: DIQMTQSPSSLSASVGDRVTITCRASQSVIKYLNWYQQRPGRAPKLLIYDASILESGVPSRFSGSGSGTDFTLTISSLHLEDFATYYCQQSYNTPPWTFGQGTRVEIK
B9: BD56-1291 (protein)
chain 1: QVQLVQSGADVKKPGSSVKVSCKASGDTFSSHSISWVRQAPGQGPEWMGTIIPTLGIANIAQRFQGRVTITADKSTSTAYMEVSSLRSEDTAVYFCAKSYYYESRGLAADAFDIWGQGTMVTVSS
chain 2: QSVLAQPPSVAGAPGQRVTISCTGSNSNIGAGYDVHWYQQLPGTAPKFLIFGNNNRPSGVPDRFSGSKSGTSASLAITGLQAEDEADYYCQSYDSSLIGPVFGGGTKLTVL
B10: BD56-1275 (protein)
chain 1: QVQLVQSGAEVKKPGSSVKVSCKASGGTFSSYSIVWVRQAPGQGLEWMGRIIPILGVANYAQMFQGRVTITADRSTNTAYLEVSSLRSEDTAVYYCAREIGTTGAPWFIPWGQGTLVIVSS
chain 2: QSVLTQPPSVSGAPGQRVTISCTGSDSNIGAGYDVHWYQKLPGTAPKLLIYGNNNRPSGVPDRFTGSKSDTSVSLAITGLQAEDEADYYCQSYDSGLIGVIFGGGTKLTVL
B11: BD56-1301 (protein)
chain 1: QVQLVQSGADVKKPGSSVKVSCKASGGTFSSYSIVWVRQAPGQGLEWMGRIIPILDVANYAQLFQGRVTITADRSANTAYLEVSSLRSEDTAVYYCARETGTTGTPWFIPWGQGTLVIVSS
chain 2: QSVLTQPPSVSGAPGQRVTISCTGSDSNIGAGYDVHWYQKLPGTAPKLLIYGNNNRPSGVPDRFTGSKSDTSVSLAITGLQAEDEADYYCQSYDSGLIGVIFGGGTKLTVL
B12: BD56-1295 (protein)
chain 1: QVQLVQSGAEVKKPGSSVKVSCKASGGTFSSSAINWVRQAPGQGLEWLGRTIPILDITNYAQKFQDRVTLSADKSTGTVYMELSGLRSDDTAVYYCARDQTPVTTFGIGHYYGMDVWGQGTTVTVSS
chain 2: DIQMTQSPSTLSASVGDRVTITCRASQRIDNWVAWYQQKPGKAPKLLIYDASSLLIGVPSRFSGSGSGTEFILAISSLQPDDFATYYCQQYNSHPMFGQGTKVEIK
B13: BD56-1283 (protein)
chain 1: EVHLVESGGGLVQPGGSLRLSCAASGFTFSSYDMHWVRQPTGKGLEWVSAIGTAGDTYYPDSVKGRFTSSRENDKKSLFLQMNSLRVGDTAVYYCARAVDCSASNCYSNWYFDLWGRGTLVTVSS
chain 2: DIQMTQSPSSLSASIGDRVTISCRASQSIGRFLHWYQQKPGKAPKLLIYDASTLQSGVTSRFSGGGSGTDFTLTISSLQPEDFATYYCQQSYSTPPITFGQGTRLEIK

Biological target: SARS-CoV-2 Omicron BA.1 spike pseudovirus
Test: pseudovirus neutralization IC50; higher = weaker neutralization
Description: (§1)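 Single-round VSV luciferase pseudovirus mixed with antibody dilutions for 1 h and put on Huh-7 cells for about a day; IC50 from the dose curve.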

Binder | pseudovirus neutralization IC50 [µg/mL]
B1 | 0.751
B2 | 0.014
B3 | 0.835
B4 | > 10
B5 | 0.193
B6 | 3.06
B7 | > 10
B8 | 0.539
B9 | 0.18
B10 | 0.0868
B11 | 0.167
B12 | 0.0114
B13 | > 10

Biological target: SARS-CoV-2 Omicron BA.2 spike pseudovirus
Test: as above
Description: as §1

Binder | pseudovirus neutralization IC50 [µg/mL]
B1 | 0.0376
B2 | 0.0084
B3 | 0.138
B4 | > 10
B5 | 0.151
B6 | 0.0832
B7 | > 10
B8 | 0.58
B9 | 0.0814
B10 | 0.073
B11 | 0.136
B12 | 0.00528
B13 | > 10

Biological target: SARS-CoV-2 Omicron BA.2.75 spike pseudovirus
Test: as above
Description: as §1

Binder | pseudovirus neutralization IC50 [µg/mL]
B1 | 0.0442
B2 | 0.011
B3 | 0.122
B4 | > 10
B5 | 0.617
B6 | 3.91
B7 | > 10
B8 | 4.12
B9 | 0.148
B10 | 0.0773
B11 | 0.154
B12 | 0.0082
B13 | > 10

Biological target: SARS-CoV-2 Omicron BA.5 spike pseudovirus
Test: as above
Description: as §1

Binder | pseudovirus neutralization IC50 [µg/mL]
B1 | 0.0325
B2 | 0.0137
B3 | 0.083
B4 | > 10
B5 | 0.196
B6 | 0.0863
B7 | > 10
B8 | 2.88
B9 | 2.31
B10 | 2.48
B11 | > 10
B12 | > 10
B13 | > 10

Biological target: SARS-CoV-2 Omicron BQ.1.1 spike pseudovirus
Test: as above
Description: as §1

Binder | pseudovirus neutralization IC50 [µg/mL]
B1 | 0.126
B2 | 0.0167
B3 | 0.217
B4 | > 10
B5 | 1.72
B6 | > 10
B7 | > 10
B8 | 3.6
B9 | 3.5
B11 | > 10
B12 | > 10
B13 | > 10

Biological target: SARS-CoV-2 Omicron XBB spike pseudovirus
Test: as above
Description: as §1

Binder | pseudovirus neutralization IC50 [µg/mL]
B1 | 0.0921
B2 | 0.0164
B3 | > 10
B4 | > 10
B5 | 1.65
B6 | 3.13
B7 | > 10
B8 | 1.35
B9 | 2.17
B11 | > 10
B12 | > 10
B13 | > 10

Biological target: SARS-CoV-2 early D614G spike pseudovirus
Test: as above
Description: as §1

Binder | pseudovirus neutralization IC50 [µg/mL]
B1 | 0.00571
B2 | 0.0605
B3 | 1.24
B4 | 1.11
B5 | 0.193
B6 | 0.05
B7 | 1.02
B8 | 0.577
B9 | 0.441
B10 | 0.0568
B11 | 0.182
B12 | 0.032
B13 | 2.03
